Laboratory results: PubChem BioAssay AID504761 (Drosophila RNAi Screening Center, 2011)
Screen: 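Fly genes whose silencing reduces dengue virus type 2 infection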 (primary screen). Cells: D.Mel-2 cells from Drosophila. Knock-down reagent: long dsRNA against Drosophila genes. Challenge: infection with dengue virus type 2; dose and infection time not stated. Detection: 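Cells stained for dengue envelope protein and imaged; percent of infected cells per well on duplicate plates, ranked by infection, with stained nuclei counted for cell number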. Direction: infection score: higher = more virus-infected cells; cell count: higher = more cells in the well. Active means: 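Very low infection ranking in both replicate wells (chance probability at most 0.065), then a retest showing infection dropped 1.5-fold or more at p below 0.05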. Calls: active = confirmed: knock-down lowers infection; inactive = not picked or not confirmed.
The screen tested about 22,000 reagents; below is an unselected part of those with a known target gene and a result. Over the whole deposit, 116 (0.52%) got an active call. 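Calls depend on retest data that are not deposited; infection was ranked per plate without normalising between plates; the unit of the infection score is not given.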 Raw values are not corrected between plates. A number with no mark means an inactive call. Not stated in the record: the amount of reagent, the time to read-out.

Which result is listed for ppk19 (pickpocket 19) [DRSC15321]?
infection score, replicate 1: 5.85; infection score, replicate 2: 2.59; cell count, replicate 1: 5849; cell count, replicate 2: 656

For CG14778 [DRSC17953], how do the results read?
infection score, replicate 1: 6.32; infection score, replicate 2: 5.13; cell count, replicate 1: 6776; cell count, replicate 2: 5730

With CG1409 [DRSC17910], what was measured?
infection score, replicate 2: 22; cell count, replicate 1: 440; cell count, replicate 2: 5144

With CG13063 [DRSC09946], what was measured?
infection score, replicate 1: 2.09; infection score, replicate 2: 4.14; cell count, replicate 1: 5780; cell count, replicate 2: 6548

With CG13063 [DRSC25466], how do the results read?
infection score, replicate 1: 20.2; infection score, replicate 2: 12.4; cell count, replicate 1: 6124; cell count, replicate 2: 5824

2 of these entries in another layout:
gene,DRSC id,"infection score, replicate 1","infection score, replicate 2","cell count, replicate 1","cell count, replicate 2"
ppk19 (pickpocket 19),DRSC15321,5.85,2.59,5849,656
CG14778,DRSC17953,6.32,5.13,6776,5730

More reagents follow.
What did the screen give for CG5418 [DRSC02857]?
infection score, replicate 1: 2.61; infection score, replicate 2: 1.42; cell count, replicate 1: 6321; cell count, replicate 2: 6604

How did the screen score CG5418 [DRSC25643]?
infection score, replicate 1: 4.61; infection score, replicate 2: 2.45; cell count, replicate 1: 6510; cell count, replicate 2: 6500

How did the screen score CG43689 [DRSC22467]?
infection score, replicate 1: 8.03; infection score, replicate 2: 4.11; cell count, replicate 1: 6652; cell count, replicate 2: 6735

What is on record for CG43689 [DRSC23070]?
infection score, replicate 1: 1.49; infection score, replicate 2: 6.34; cell count, replicate 1: 6161; cell count, replicate 2: 6203

Which result is listed for CG43689 [DRSC26563]?
infection score, replicate 1: 2.44; infection score, replicate 2: 0.74; cell count, replicate 1: 5564; cell count, replicate 2: 5419

How did the screen score Acox57D-d (acyl-Coenzyme A oxidase at 57D distal) [DRSC04561]?
infection score, replicate 1: 4.87; infection score, replicate 2: 6.67; cell count, replicate 1: 6675; cell count, replicate 2: 5848

Which result is listed for Acox57D-d (acyl-Coenzyme A oxidase at 57D distal) [DRSC30108]?
infection score, replicate 1: 6.93; infection score, replicate 2: 23.1; cell count, replicate 1: 6119; cell count, replicate 2: 5210
